Reference: paper PMC9138683, “Decoding the Role of Melatonin Structure on Plasmodium falciparum Human Malaria Parasites Synchronization Using 2-Sulfenylindoles Derivatives” (Biomolecules, 2022)

Tests used:
[1] = tested on: Plasmodium falciparum 3D7 (chloroquine-sensitive); experiment: In vitro drug susceptibility assay, 3D7 strain (flow cytometry, SYBR Green I / MitoTracker Deep Red); assay type: cell-based; conditions: selectivity index: CC50 value of HEK293 cell/IC50 value of Pf3D7; 100 used as CC50 where >100 µM
Procedure: (§1) The cultures were maintained under an atmosphere of 5% CO2, 5% O2, and 90% N2. Fresh complete medium was provided daily, and rapid-stained (Panotico) blood smears were examined.
(§2) To evaluate the effects of synthetic compounds on the intraerythrocytic development of P. falciparum, we analyzed parasitemia by flow cytometry with 0.3% initial parasitemia and 1% hematocrit in the assay. Plates were incubated with the compounds at concentrations ranging from 0.10 to 100 µM for 72 h. Dual staining with SYBR Green I (SG-I) (Invitrogen, Waltham, MA, USA) and MitoTracker Deep Red (MT-Red) (Invitrogen) were used to label nucleic acids and mitochondria, respectively. Approximately 10,000 cells were counted by an Accuri C6 (Becton Dickinson, San Jose, CA, USA) and analyzed by FlowJo 5 software. Parasitemia was determined from the analysis of dot plots (side scatter versus fluorescence).
(§3) We determined the susceptibility of P. falciparum to the indole compounds and investigated whether CQR parasites responded differently to the compounds. […] We determined the IC50 values for each compound by analyzing viable and non-viable parasites after compound treatment, represented in dot plots (Figure 1H).

[2] = tested on: Plasmodium falciparum Dd2 (chloroquine-resistant); experiment: In vitro drug susceptibility assay, Dd2 strain (flow cytometry, SYBR Green I / MitoTracker Deep Red); assay type: cell-based; conditions: selectivity index: CC50 value of HEK293 cell/IC50 value of PfDd2; 100 used as CC50 where >100 µM
Procedure: as §1, §2, §3

Compound	SI 3D7 [1]	SI Dd2 [2]
COC(=O)Cc1c(Sc2ccccc2)[nH]c2ccccc12 [Compound 3]	1.44	0.84
COC(=O)Cc1c(SC23CC4CC(CC(C4)C2)C3)[nH]c2ccccc12 [Compound 18]	1.24	1.07
COC(=O)Cc1c(Sc2cccc(O)c2)[nH]c2ccccc12 [Compound 7]	0.54	0.57
CCCCCCCCCCCCSc1[nH]c2cc(Cl)ccc2c1CC(=O)OC [Compound 21]	>5.24	>5.93
CCSc1[nH]c2ccccc2c1CC(=O)OC [Compound 17]	1.06	0.75
COC(=O)Cc1c(SCc2ccccc2)[nH]c2ccccc12 [Compound 14]	1.14	0.63
COC(=O)Cc1c(SCCCCCCCCCCC(=O)O)[nH]c2ccccc12 [Compound 20]	>3.47	>11.47
COC(=O)Cc1c(SC(C)(C)C)[nH]c2ccccc12 [Compound 16]	0.84	0.55
c1ccc(Cc2c(Sc3ccccc3)[nH]c3ccccc23)cc1 [Compound 26]	2.58	0.97
COC(=O)Cc1c(SCCCCO)[nH]c2ccccc12 [Compound 19]	1.01	0.70
COC(=O)Cc1c(Sc2ncccn2)[nH]c2ccccc12 [Compound 10]	>1.82	> 2.29
COC(=O)Cc1c(Sc2ccccc2)[nH]c2ccc(OC)cc12 [Compound 25]	0.50	0.28
COC(=O)Cc1c(Sc2ccccc2C(=O)O)[nH]c2ccccc12 [Compound 8]	>2.68	> 2.31
